# Source: article PMC8883962
# Assays:
# [1] = biological target: Finegoldia Protein L (PpL) (Finegoldia magna) (UniProt Q51918); assay: BLI
# [2] = biological target: Staphylococcal Protein A (SpA) (Staphylococcus aureus) (UniProt P38507); assay: BLI
Substance,Kd [1] [nM],Kd [2] [nM]
Pertuzumab Vκ2–VH1 IgG1 (antibody),149,
Pertuzumab Vκ2–VH5 IgG1 (antibody),0.93,
Pertuzumab Vκ2–VH6 IgG1 (antibody),0.72,
Pertuzumab Vκ2–VH7 IgG1 (from UniProt P01857),,1.15
Pertuzumab Vκ5–VH7 IgG1 (from UniProt P01857),,1.3
Trastuzumab Vκ2–VH1 IgG1 (antibody),124,
Trastuzumab Vκ2–VH1 IgG1 (from UniProt P01857),,1.49
Trastuzumab Vκ2–VH2 IgG1 (antibody),78.6,
Trastuzumab Vκ2–VH6 IgG1 (antibody),190,
Trastuzumab Vκ2–VH7 IgG1 (antibody),9.79,
Trastuzumab Vκ5–VH3 IgG1 (antibody),1.75,
Trastuzumab Vκ5–VH3 IgG1 (from UniProt P01857),,0.72
